Compound potency records, mixed from different reports. Data source: NIAID ChemDB in PubChem.

All rows: whole-cell or culture tests; agent: HIV-1

Blank or dashed fields: not listed here. ECn: concentration that inhibits the pathogen or its effect by n%. Lines come from different laboratories, so protocols vary.

smiles | read by | read-out | cell line | changes | strain or isolate | result
N#Cc1cc(Cl)cc(Oc2cc(OCc3nc4cccc(Cl)c4o3)ccc2Cl)c1 | p24 | EC50 | MT-4 |  |  | <20 µM
O=C(C(=O)N1CCN(C(=O)c2ccccc2)CC1)c1c[nH]c2cccc([N+](=O)[O-])c12 | RT activity | EC50 | MT-2 |  | BRU | <10 µM
CC(C)C1=C2[C@H]3CC[C@@H]4[C@@]5(C)CC[C@H](OC(=O)[C@H]6C[C@@H](C(=O)O)C6(C)C)C(C)(C)[C@@H]5CC[C@@]4(C)[C@]3(C)CC[C@@]2([C@@H](O)CNCC(C)(C)NC(=O)c2cccnc2)CC1=O | p24 / ELISA | EC50 | MT-2 |  | 92HT599 | <1 µM
N#Cc1cc(Cl)cc(Oc2cc(OCc3[nH]nc4nc(N5CC(N)C5)ccc34)ccc2Cl)c1 | p24 | EC50 | MT-4 |  |  | <20 µM
C[C@@H]1CN(C(=O)c2ccccc2)CCN1C(=O)C(=O)c1c[nH]c2c(F)cccc12 | luciferase | EC50 | HeLa + HELA CD4+/CCR5 |  |  | <10 µM
N#Cc1cc(Cl)cc(Oc2cc(F)cc(OCc3[nH]nc4ncccc34)c2)c1 | p24 | EC50 | MT-4 |  |  | <20 µM
CC(C)C1=C2[C@H]3CC[C@@H]4[C@@]5(C)CC[C@H](OC(=O)[C@H]6C[C@@H](C(=O)O)C6(C)C)C(C)(C)[C@@H]5CC[C@@]4(C)[C@]3(C)CC[C@@]2([C@@H](O)CNC(=O)C2(NC(=O)c3ccc(Cl)cc3)CCCCC2)CC1=O | p24 / ELISA | EC50 | MT-2 |  | 92HT599 | <1 µM
C[C@@H]1CCO[C@H]2Cn3cc(C(=O)NCc4ccc(F)cc4F)c(=O)c(O)c3C(=O)N12 | RT activity | EC50 | CBMC | E138K/R263K | NL4-3 | 0.0027 µM
N#Cc1cc(Cl)cc(Oc2cc(Cl)cc(OCC(=O)NC3CCS(=O)(=O)C3)c2)c1 | p24 | EC50 | MT-4 |  |  | <20 µM
CCC(=O)c1ccc(F)c([C@@H]2C[C@@H]2NC(=O)Nc2ccc(C#N)cn2)c1O | β-galactosidase / luminescence | EC50 | TZM-bl | NNRTI-resistant (RT G190A) | LAI | 0.0004 µM
COP(=O)(c1cc(C)cc(CCC#N)c1)c1c(C(N)=O)[nH]c2ccc(Cl)c(F)c12 |  | EC50 | PBMC |  | NL4-3 | 0.0015 µM
O=C(C(=O)N1CCN(C(=O)c2ccccc2)CC1C(=O)O)c1c[nH]c2cccc(F)c12 | luciferase | EC50 | HeLa + HELA CD4+/CCR5 |  |  | <10 µM
N#Cc1cc(Cl)cc(Oc2cc(OCC(=O)Nc3ccncc3C(F)(F)F)ccc2Cl)c1 | p24 | EC50 | MT-4 |  |  | <20 µM
CCN(CC)S(=O)(=O)c1ccc(NC(=O)Nc2cccc3c(C(=O)C(=O)N4CCC(=C(C#N)c5ccccc5)CC4)c[nH]c23)cc1 | luciferase / reporter gene | EC50 | HeLa |  |  | <1 µM
CC(C)C1=C2[C@H]3CC[C@@H]4[C@@]5(C)CC[C@H](OC(=O)[C@H]6C[C@@H](C(=O)O)C6(C)C)C(C)(C)[C@@H]5CC[C@@]4(C)[C@]3(C)CC[C@@]2(CC(=O)NCc2ccc3nc(-c4ccccc4)[nH]c3c2)CC1=O | p24 / ELISA | EC50 | MT-2 |  | 92HT599 | <1 µM
Nc1nccc2c1ncn2[C@@H]1C=C(CO)[C@@H](O)[C@H]1O | p24 | EC50 | PBMC |  | A018 POST-AZT | 0.0048 µM
COc1ccc(S(=O)(=O)N(CC(C)C)CC(O)CCN2CCN(Cc3cccnc3)C[C@H]2C(=O)NC(C)(C)C)cc1 | p24 | EC50 | CEM |  | IIIB | <1 µM
C[C@@H]1CN(C(=O)c2ccccc2)CCN1/C(O)=C(/O)c1c[nH]c2c(NC(=O)Nc3ccc([N+](=O)[O-])cc3)cccc12 | luciferase / reporter gene | EC50 | HeLa |  |  | <1 µM
CC(C)CN(CC(O)CN(CC(C)C)S(=O)(=O)c1ccc([N+](=O)[O-])cc1)S(=O)(=O)c1ccccc1 | p24 | EC50 | CEM |  | IIIB | <1 µM
CC(C)(C)OC(=O)Nc1ccc(C(=O)N2CCN(C(=O)C(=O)c3c[nH]c4cccc(Cl)c34)CC2)cc1 | luciferase | EC50 | HeLa + HELA CD4+/CCR5 |  |  | <10 µM
CC(=O)Nc1ccc(F)c2c(C(=O)C(=O)N3CCC(=C(C#N)c4ccccc4)CC3)c[nH]c12 | luciferase / reporter gene | EC50 | HeLa |  |  | <1 µM
O=C(C(=O)N1CCN(C(=O)c2ccccc2)CC1)c1c[nH]c2c(OCC(F)(F)F)ccc(F)c12 | luciferase | EC50 | HeLa + HELA CD4+/CCR5 |  |  | <10 µM
C[C@@H]1CN(C(=O)c2ccccc2)CCN1C(=O)C(=O)c1c[nH]c2c(NS(=O)(=O)N(C)C)cccc12 | luciferase / reporter gene | EC50 | HeLa |  |  | <1 µM
N#Cc1cc(Cl)cc(Oc2cc(F)c(Cl)c(OCc3[nH]nc4ncccc34)c2)c1 | p24 | EC50 | MT-4 |  |  | <20 µM
COc1ccnc2[nH]cc(C(=O)C(=O)N3C4CCC3CN(C(=O)c3ccccc3)C4)c12 | luciferase | EC90 | TZM-bl |  | AC10 | 18 µM
CC(C)C1=C2[C@H]3CC[C@@H]4[C@@]5(C)CC[C@H](OC(=O)[C@H]6C[C@@H](C(=O)O)C6(C)C)C(C)(C)[C@@H]5CC[C@@]4(C)[C@]3(C)CC[C@@]2(CC(=O)N(CCN(C)C)Cc2ccccc2Cl)CC1=O | p24 / ELISA | EC50 | MT-2 |  | 92HT599 | <1 µM
CC(C)CN(CC(O)Cn1ccnc1C(=O)NC(C)(C)C)S(=O)(=O)c1ccccc1 | p24 | EC50 | CEM |  | IIIB | <1 µM
Nc1nccc2c1ncn2[C@@H]1O[C@H](CO)[C@@H](O)[C@H]1O | p24 | EC50 | PBMC |  | A018 POST-AZT | 0.683 µM
N#Cc1cc(Cl)cc(Oc2cc(F)c(Cl)c(OCc3nnc4n(O)cccc3-4)c2)c1 | p24 | EC50 | MT-4 |  |  | <20 µM
CC(C)CN(CC(O)Cc1nccn1S(=O)(=O)c1ccccc1)S(=O)(=O)c1ccccc1 | p24 | EC50 | CEM |  | IIIB | <1 µM
CC(C)C1=C2[C@H]3CC[C@@H]4[C@@]5(C)CC[C@H](OC(=O)[C@H]6C[C@@H](C(=O)O)C6(C)C)C(C)(C)[C@@H]5CC[C@@]4(C)[C@]3(C)CC[C@@]2([C@@H](O)CNCC(C)(C)NC(=O)c2ccncn2)CC1=O | p24 / ELISA | EC50 | MT-2 |  | 92HT599 | <1 µM
COc1ccc(Cl)c2[nH]cc(C(=O)C(=O)N3CCN(C(=O)c4ccc(N)cc4)C[C@H]3C)c12 | luciferase | EC50 | HeLa + HELA CD4+/CCR5 |  |  | <10 µM
CN1c2ccccc2C2C1C=C(C#N)C(=O)N2c1ccc([N+](=O)[O-])cc1 | GFP / fluorescence | EC50 | HeLa |  | 1617-1 | 0.7 µM
COc1ccc(S(=O)(=O)N(CC(C)C)C[C@@H](O)CCN(CC2CCCC2)S(=O)(=O)CC2COCO2)cc1 | p24 | EC50 | CEM |  | IIIB | <1 µM
O=C1Nc2ccc(Cl)cc2[C@@](C#CC2CC2)(C(F)(F)F)O1 |  | EC50 | MT-4 | V106A |  | 0.0065 µM
COC(=O)c1cccc2c(C(=O)C(=O)N3CCN(C(=O)c4ccccc4)C[C@H]3C)c[nH]c12 | luciferase | EC50 | HeLa + HELA CD4+/CCR5 |  |  | <10 µM
CCCc1cc(=O)oc2c3c(c4c(c12)OC(C)(C)CC4)O[C@H](C)[C@@H](C)C3=O | cytopathic effect / XTT | EC50 | CEM + CEM-SS |  | IIIB | 1.09 µM
COc1ccnc2[nH]cc(C(=O)C(=O)N3C4CC3CN(C(=O)c3ccccc3)C4)c12 | luciferase | EC99 | TZM-bl |  | AC10 | >>250 µM
CS(=O)(=O)c1ccc2c(c1)CCN2C(=O)COc1cc(Cl)cc(Oc2cc(Cl)cc(C#N)c2)c1 | p24 | EC50 | MT-4 |  |  | <20 µM
CC(C)C1=C2[C@H]3CC[C@@H]4[C@@]5(C)CC[C@H](OC(=O)[C@H]6C[C@@H](C(=O)O)C6(C)C)C(C)(C)[C@@H]5CC[C@@]4(C)[C@]3(C)CC[C@@]2([C@@H](O)CNC[C@@H]2CCCNC2)CC1=O | p24 / ELISA | EC50 | MT-2 |  | 92HT599 | <1 µM
COc1ccc(S(=O)(=O)N(CC2CCCC2)C[C@@H](O)CN(CCC2CCCCC2)C(=O)O[C@H]2CCOC2)cc1 | p24 | EC50 | CEM |  | IIIB | <0.1 µM
N#CC1=CC2Nc3ccccc3C2N(c2ccc([N+](=O)[O-])cc2)C1=O | GFP / fluorescence | EC50 | HeLa |  | 14AG | 0.2 µM
Clc1cc(CN2CCCNCCNCCCNCC2)cc(Cl)n1 | p24 | EC50 | HOS-CD4-CCR5 + HOS |  | BAL R5 | 8.3 µM

A second listing of 5 rows from above:

smiles	read by	read-out	cell line	changes	strain or isolate	result
CCCc1cc(=O)oc2c3c(c4c(c12)OC(C)(C)CC4)O[C@H](C)[C@@H](C)C3=O	cytopathic effect / XTT	EC50	CEM + CEM-SS		IIIB	1.09 µM
N#CC1=CC2Nc3ccccc3C2N(c2ccc([N+](=O)[O-])cc2)C1=O	GFP / fluorescence	EC50	HeLa		14AG	0.2 µM
CS(=O)(=O)c1ccc2c(c1)CCN2C(=O)COc1cc(Cl)cc(Oc2cc(Cl)cc(C#N)c2)c1	p24	EC50	MT-4			<20 µM
O=C(C(=O)N1CCN(C(=O)c2ccccc2)CC1)c1c[nH]c2cccc([N+](=O)[O-])c12	RT activity	EC50	MT-2		BRU	<10 µM
N#Cc1cc(Cl)cc(Oc2cc(Cl)cc(OCC(=O)NC3CCS(=O)(=O)C3)c2)c1	p24	EC50	MT-4			<20 µM